Tests used:
Nav1.7 = Nav1.7 (Homo sapiens, UniProt Q15858, W1161R); test: IC50 (Nav1.7) µM; conditions: read-out: IC50 (Nav1.7) µM
Nav1.2 = Nav1.2 (Homo sapiens, UniProt Q99250); test: IC50 (Nav1.2) µM; conditions: read-out: IC50 (Nav1.2) µM

By UniProt entry, the sequences of proteins in these tests, tags left out.
UniProt Q15858, whole entry W1161R, looked up: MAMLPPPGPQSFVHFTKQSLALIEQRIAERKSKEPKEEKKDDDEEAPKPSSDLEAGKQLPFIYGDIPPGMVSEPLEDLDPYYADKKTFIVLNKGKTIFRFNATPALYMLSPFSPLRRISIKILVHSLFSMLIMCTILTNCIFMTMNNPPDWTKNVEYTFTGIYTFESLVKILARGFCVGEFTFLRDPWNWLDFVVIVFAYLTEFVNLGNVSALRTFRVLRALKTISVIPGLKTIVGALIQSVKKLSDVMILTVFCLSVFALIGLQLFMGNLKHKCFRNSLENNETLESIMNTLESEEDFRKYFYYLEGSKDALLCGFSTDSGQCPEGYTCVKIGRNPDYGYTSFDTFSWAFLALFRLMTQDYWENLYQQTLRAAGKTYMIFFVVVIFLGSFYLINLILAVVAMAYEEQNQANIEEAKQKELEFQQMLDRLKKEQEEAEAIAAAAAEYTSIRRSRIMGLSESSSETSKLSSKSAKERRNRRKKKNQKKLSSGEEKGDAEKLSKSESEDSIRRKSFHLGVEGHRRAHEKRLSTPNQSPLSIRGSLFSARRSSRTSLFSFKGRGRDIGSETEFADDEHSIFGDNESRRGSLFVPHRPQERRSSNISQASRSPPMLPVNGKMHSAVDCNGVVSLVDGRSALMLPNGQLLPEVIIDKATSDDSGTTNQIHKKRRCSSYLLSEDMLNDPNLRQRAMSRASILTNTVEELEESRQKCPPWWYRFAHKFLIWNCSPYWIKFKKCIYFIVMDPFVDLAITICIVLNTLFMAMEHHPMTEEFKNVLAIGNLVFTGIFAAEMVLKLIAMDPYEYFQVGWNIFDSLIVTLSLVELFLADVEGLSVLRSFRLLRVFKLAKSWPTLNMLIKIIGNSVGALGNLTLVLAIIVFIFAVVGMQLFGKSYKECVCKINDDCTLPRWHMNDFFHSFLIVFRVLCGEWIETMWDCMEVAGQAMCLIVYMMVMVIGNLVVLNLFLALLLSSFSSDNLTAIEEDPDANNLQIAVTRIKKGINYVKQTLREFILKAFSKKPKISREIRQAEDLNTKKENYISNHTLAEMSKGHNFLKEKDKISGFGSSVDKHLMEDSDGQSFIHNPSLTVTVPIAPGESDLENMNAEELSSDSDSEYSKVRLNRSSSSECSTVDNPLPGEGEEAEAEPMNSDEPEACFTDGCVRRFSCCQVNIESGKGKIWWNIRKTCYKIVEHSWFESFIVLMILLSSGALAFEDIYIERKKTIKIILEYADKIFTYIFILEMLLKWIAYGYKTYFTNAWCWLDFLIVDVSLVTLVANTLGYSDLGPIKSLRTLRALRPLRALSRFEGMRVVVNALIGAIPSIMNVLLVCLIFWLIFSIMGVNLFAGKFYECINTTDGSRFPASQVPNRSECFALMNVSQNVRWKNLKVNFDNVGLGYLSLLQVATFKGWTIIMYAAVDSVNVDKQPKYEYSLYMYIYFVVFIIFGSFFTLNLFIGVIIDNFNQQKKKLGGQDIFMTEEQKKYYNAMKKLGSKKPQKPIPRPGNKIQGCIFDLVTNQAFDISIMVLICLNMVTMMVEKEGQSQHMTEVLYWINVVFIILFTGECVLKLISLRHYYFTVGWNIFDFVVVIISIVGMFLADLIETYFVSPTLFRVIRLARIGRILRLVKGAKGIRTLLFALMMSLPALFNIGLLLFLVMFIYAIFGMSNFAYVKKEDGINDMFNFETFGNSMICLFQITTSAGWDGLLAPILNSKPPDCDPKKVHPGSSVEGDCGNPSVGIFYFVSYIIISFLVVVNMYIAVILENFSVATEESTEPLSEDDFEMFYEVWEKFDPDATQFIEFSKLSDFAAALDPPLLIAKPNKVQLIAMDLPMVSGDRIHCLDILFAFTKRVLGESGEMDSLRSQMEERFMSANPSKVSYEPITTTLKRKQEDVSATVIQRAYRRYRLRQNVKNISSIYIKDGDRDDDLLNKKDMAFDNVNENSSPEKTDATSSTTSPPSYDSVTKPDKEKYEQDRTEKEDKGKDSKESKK
UniProt Q99250, whole entry, looked up: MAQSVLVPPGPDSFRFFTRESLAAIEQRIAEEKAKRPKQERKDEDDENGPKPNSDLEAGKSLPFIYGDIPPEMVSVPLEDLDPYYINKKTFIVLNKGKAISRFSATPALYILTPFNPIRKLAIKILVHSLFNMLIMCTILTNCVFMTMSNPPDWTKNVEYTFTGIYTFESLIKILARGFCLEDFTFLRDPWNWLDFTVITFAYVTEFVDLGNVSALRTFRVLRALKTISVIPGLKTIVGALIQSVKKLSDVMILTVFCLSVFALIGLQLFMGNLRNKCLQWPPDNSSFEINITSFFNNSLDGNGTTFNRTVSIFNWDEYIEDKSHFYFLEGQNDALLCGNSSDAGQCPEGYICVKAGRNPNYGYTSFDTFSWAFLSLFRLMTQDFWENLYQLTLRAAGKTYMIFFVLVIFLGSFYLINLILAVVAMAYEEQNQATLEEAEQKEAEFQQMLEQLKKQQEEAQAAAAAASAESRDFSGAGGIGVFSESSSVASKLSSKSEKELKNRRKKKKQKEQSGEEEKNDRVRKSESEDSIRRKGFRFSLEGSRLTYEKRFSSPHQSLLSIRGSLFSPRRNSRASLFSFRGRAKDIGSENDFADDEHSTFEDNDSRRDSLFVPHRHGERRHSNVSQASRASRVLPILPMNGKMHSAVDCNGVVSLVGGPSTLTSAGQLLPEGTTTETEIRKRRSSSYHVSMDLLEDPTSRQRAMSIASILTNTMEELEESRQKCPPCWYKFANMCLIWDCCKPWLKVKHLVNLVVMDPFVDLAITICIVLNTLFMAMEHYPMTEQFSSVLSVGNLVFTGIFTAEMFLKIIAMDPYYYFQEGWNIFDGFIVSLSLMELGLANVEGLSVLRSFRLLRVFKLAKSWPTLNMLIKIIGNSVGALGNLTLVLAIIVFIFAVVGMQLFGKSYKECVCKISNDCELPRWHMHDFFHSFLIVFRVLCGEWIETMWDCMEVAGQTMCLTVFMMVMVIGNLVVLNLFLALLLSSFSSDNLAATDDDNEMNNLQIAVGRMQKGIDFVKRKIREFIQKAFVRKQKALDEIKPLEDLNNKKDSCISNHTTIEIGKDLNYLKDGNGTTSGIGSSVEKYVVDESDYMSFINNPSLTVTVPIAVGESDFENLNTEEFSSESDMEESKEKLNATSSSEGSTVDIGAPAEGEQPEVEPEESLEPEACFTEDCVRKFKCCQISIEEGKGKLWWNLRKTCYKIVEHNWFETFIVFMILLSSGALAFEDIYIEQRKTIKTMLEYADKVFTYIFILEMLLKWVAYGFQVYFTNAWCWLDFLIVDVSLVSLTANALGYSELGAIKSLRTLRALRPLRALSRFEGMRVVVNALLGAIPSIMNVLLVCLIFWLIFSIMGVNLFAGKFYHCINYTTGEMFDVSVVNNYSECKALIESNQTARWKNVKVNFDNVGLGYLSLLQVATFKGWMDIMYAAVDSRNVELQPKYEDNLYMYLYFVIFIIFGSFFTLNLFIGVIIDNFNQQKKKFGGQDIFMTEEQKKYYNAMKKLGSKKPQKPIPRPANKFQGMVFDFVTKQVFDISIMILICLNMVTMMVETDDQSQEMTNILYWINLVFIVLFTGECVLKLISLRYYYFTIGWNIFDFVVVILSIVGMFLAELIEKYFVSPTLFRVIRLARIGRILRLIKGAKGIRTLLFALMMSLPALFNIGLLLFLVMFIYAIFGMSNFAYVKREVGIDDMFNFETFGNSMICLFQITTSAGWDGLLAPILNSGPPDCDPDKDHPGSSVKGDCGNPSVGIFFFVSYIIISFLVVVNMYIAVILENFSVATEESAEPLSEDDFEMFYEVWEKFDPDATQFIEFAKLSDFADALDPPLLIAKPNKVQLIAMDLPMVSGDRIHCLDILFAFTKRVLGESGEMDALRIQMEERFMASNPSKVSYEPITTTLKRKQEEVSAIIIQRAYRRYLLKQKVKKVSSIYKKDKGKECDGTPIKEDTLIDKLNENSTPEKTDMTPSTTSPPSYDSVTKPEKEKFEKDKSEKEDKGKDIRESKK

CC[C@H](C)[C@H](NC(=O)[C@H](CCC(N)=O)NC(=O)[C@H](Cc1ccc(O)cc1)NC(=O)[C@H](CCCCN)NC(=O)[C@@H]1CSSC[C@@H]2NC(=O)[C@H](CCC(N)=O)NC(=O)[C@H](CC(=O)O)NC(=O)[C@H](CC(N)=O)NC(=O)[C@H](CO)NC(=O)[C@@H]3CCCN3C(=O)[C@H](CC(N)=O)NC(=O)[C@@H]3CSSC[C@H](NC(=O)[C@H](C(C)C)NC(=O)[C@H](CC(C)C)NC(=O)[C@H](CCCCN)NC(=O)[C@H](CO)NC(=O)[C@H](CO)NC(=O)[C@H](CCCCN)NC(=O)[C@H](CSSC[C@H](NC(=O)[C@H](CCC(=O)O)NC(=O)[C@@H]4CCCN4C(=O)CN)C(=O)N[C@@H](CC(C)C)C(=O)N[C@@H](CCC(=O)O)C(=O)N[C@@H]([C@@H](C)CC)C(=O)N[C@@H](Cc4ccccc4)C(=O)N[C@@H](CCCCN)C(=O)N[C@@H](C)C(=O)N3)NC2=O)C(=O)N[C@@H](CO)C(=O)NCC(=O)N[C@@H](CCCCN)C(=O)N[C@@H]([C@@H](C)O)C(=O)N[C@@H](CCCNC(=N)N)C(=O)N[C@@H](Cc2c[nH]c3ccccc23)C(=O)N1)C(=O)NCC(=O)N[C@@H](CCCCN)C(=O)O
IC50 (Nav1.7): 0.29 µM | IC50 (Nav1.2): 3.62 µM

CC[C@H](C)[C@H](NC(=O)[C@H](CCC(N)=O)NC(=O)[C@H](Cc1ccc(O)cc1)NC(=O)[C@H](CCCCN)NC(=O)[C@@H]1CSSC[C@@H]2NC(=O)[C@H](CCC(N)=O)NC(=O)[C@H](CC(=O)O)NC(=O)[C@H](CC(N)=O)NC(=O)[C@H](CO)NC(=O)[C@@H]3CCCN3C(=O)[C@H](CC(N)=O)NC(=O)[C@@H]3CSSC[C@H](NC(=O)[C@H](C(C)C)NC(=O)[C@H](CC(C)C)NC(=O)[C@H](CCCCN)NC(=O)[C@H](CO)NC(=O)[C@H](CO)NC(=O)[C@H](CCCCN)NC(=O)[C@H](CSSC[C@H](NC(=O)[C@H](CCC(=O)O)NC(=O)[C@@H]4CCCN4C(=O)CN)C(=O)N[C@@H](CC(C)C)C(=O)N[C@@H](CCC(=O)O)C(=O)N[C@@H]([C@@H](C)CC)C(=O)N[C@@H](Cc4ccccc4)C(=O)N[C@@H](CCCCN)C(=O)N[C@@H](C)C(=O)N3)NC2=O)C(=O)N[C@@H](CO)C(=O)N[C@@H](CCCNC(=N)N)C(=O)N[C@@H](C)C(=O)N[C@@H]([C@@H](C)O)C(=O)N[C@@H](CCCNC(=N)N)C(=O)N[C@@H](Cc2c[nH]c3ccccc23)C(=O)N1)C(=O)NCC(=O)N[C@@H](CCCCN)C(=O)O
IC50 (Nav1.7): 0.26 µM | IC50 (Nav1.2): > 2.95 µM

CC[C@H](C)[C@@H]1NC(=O)[C@H](CCC(=O)O)NC(=O)[C@H](CC(C)C)NC(=O)[C@@H](NC(=O)[C@H](CC(N)=O)NC(=O)[C@@H]2CCCN2C(=O)CN)CSSC[C@@H]2NC(=O)[C@@H]3CSSC[C@@H](C(=O)N[C@@H](CCCCN)C(=O)N[C@@H](Cc4ccc(O)cc4)C(=O)N[C@@H](CO)C(=O)N[C@H](C(=O)N[C@H](C(=O)N[C@@H](CCCCN)C(=O)O)[C@@H](C)CC)[C@@H](C)CC)NC(=O)[C@H](Cc4c[nH]c5ccccc45)NC(=O)[C@H](CCCNC(=N)N)NC(=O)[C@H]([C@@H](C)O)NC(=O)[C@H](CCCCN)NC(=O)[C@H](CCCCN)NC(=O)[C@H](CO)NC(=O)[C@H](CSSC[C@H](NC(=O)[C@H](C)NC(=O)[C@H](CCCCN)NC(=O)[C@H](Cc4ccccc4)NC1=O)C(=O)N[C@@H](CC(N)=O)C(=O)N1CCC[C@H]1C(=O)N[C@@H](CO)C(=O)N[C@@H](CC(N)=O)C(=O)N[C@@H](CC(=O)O)C(=O)N[C@@H](CCC(N)=O)C(=O)N3)NC(=O)[C@H](C(C)C)NC(=O)[C@H](CC(C)C)NC(=O)[C@H](CCCCN)NC(=O)[C@H](CO)NC(=O)[C@H](CO)NC(=O)[C@H](CCCCN)NC2=O
IC50 (Nav1.7): 0.24 µM | IC50 (Nav1.2): > 7.14 µM

CC[C@H](C)[C@H](NC(=O)[C@H](CCC(N)=O)NC(=O)[C@H](Cc1ccc(O)cc1)NC(=O)[C@H](CCCCN)NC(=O)[C@@H]1CSSC[C@@H]2NC(=O)[C@H](CC(N)=O)NC(=O)[C@H](CC(=O)O)NC(=O)[C@H](CC(N)=O)NC(=O)[C@H](CO)NC(=O)[C@@H]3CCCN3C(=O)[C@H](CC(N)=O)NC(=O)[C@@H]3CSSC[C@H](NC(=O)[C@H](C(C)C)NC(=O)[C@H](CC(C)C)NC(=O)[C@H](CCCCN)NC(=O)[C@H](CO)NC(=O)[C@H](CO)NC(=O)[C@H](CCCCN)NC(=O)[C@H](CSSC[C@H](NC(=O)[C@H](CCC(=O)O)NC(=O)[C@@H]4CCCN4C(=O)CN)C(=O)N[C@@H](CC(C)C)C(=O)N[C@@H](CCC(=O)O)C(=O)N[C@@H]([C@@H](C)CC)C(=O)N[C@@H](Cc4ccccc4)C(=O)N[C@@H](CCCCN)C(=O)N[C@@H](C)C(=O)N3)NC2=O)C(=O)N[C@@H](CO)C(=O)N[C@@H](CCCNC(=N)N)C(=O)N[C@@H](CCCCN)C(=O)N[C@@H]([C@@H](C)O)C(=O)N[C@@H](CCCNC(=N)N)C(=O)N[C@@H](Cc2c[nH]c3ccccc23)C(=O)N1)C(=O)NCC(=O)N[C@@H](CCCCN)C(=O)O
IC50 (Nav1.7): 0.02 µM | IC50 (Nav1.2): 0.06 µM

CC[C@H](C)[C@@H]1NC(=O)[C@H](CCCNC(=N)N)NC(=O)[C@H](CC(C)C)NC(=O)[C@@H](NC(=O)[C@H](CC(N)=O)NC(=O)[C@@H]2CCCN2C(=O)CN)CSSC[C@@H]2NC(=O)[C@@H]3CSSC[C@@H](C(=O)N[C@@H](CCCCN)C(=O)N[C@@H](Cc4c[nH]c5ccccc45)C(=O)N[C@@H](CCC(N)=O)C(=O)N[C@H](C(=O)N[C@H](C(=O)N[C@@H](CCCCN)C(=O)O)[C@@H](C)CC)[C@@H](C)CC)NC(=O)[C@H](Cc4c[nH]c5ccccc45)NC(=O)[C@H](CCCNC(=N)N)NC(=O)[C@H]([C@@H](C)O)NC(=O)[C@H](CCCCN)NC(=O)[C@H](CCCNC(=N)N)NC(=O)[C@H](CO)NC(=O)[C@H](CSSC[C@H](NC(=O)[C@H](C)NC(=O)[C@H](CCCCN)NC(=O)[C@H](Cc4ccccc4)NC1=O)C(=O)N[C@@H](CC(N)=O)C(=O)N1CCC[C@H]1C(=O)N[C@@H](CO)C(=O)N[C@@H](CC(N)=O)C(=O)N[C@@H](CC(=O)O)C(=O)N[C@@H](CCC(N)=O)C(=O)N3)NC(=O)[C@H](C(C)C)NC(=O)[C@H](CC(C)C)NC(=O)[C@H](CCCCN)NC(=O)[C@H](CO)NC(=O)[C@H](CO)NC(=O)[C@H](CCCCN)NC2=O
IC50 (Nav1.7): 0.02 µM | IC50 (Nav1.2): 0.05 µM

CC[C@H](C)[C@H](NC(=O)[C@H](CCC(N)=O)NC(=O)[C@H](Cc1ccc(O)cc1)NC(=O)[C@H](CCCCN)NC(=O)[C@@H]1CSSC[C@@H]2NC(=O)[C@H](CCC(N)=O)NC(=O)[C@H](CC(=O)O)NC(=O)[C@H](CC(N)=O)NC(=O)[C@H](CO)NC(=O)[C@@H]3CCCN3C(=O)[C@H](CC(N)=O)NC(=O)[C@@H]3CSSC[C@H](NC(=O)[C@H](C(C)C)NC(=O)[C@H](CC(C)C)NC(=O)[C@H](CCCCN)NC(=O)[C@H](CO)NC(=O)[C@H](CO)NC(=O)[C@H](CCCCN)NC(=O)[C@H](CSSC[C@H](NC(=O)[C@H](CCC(=O)O)NC(=O)[C@@H]4CCCN4C(=O)CN)C(=O)N[C@@H](CC(C)C)C(=O)N[C@@H](CCC(=O)O)C(=O)N[C@@H]([C@@H](C)CC)C(=O)N[C@@H](Cc4ccccc4)C(=O)N[C@@H](CCCCN)C(=O)N[C@@H](C)C(=O)N3)NC2=O)C(=O)N[C@@H](CO)C(=O)N[C@@H](CCCNC(=N)N)C(=O)N[C@@H](CCCCN)C(=O)N[C@@H]([C@@H](C)O)C(=O)N[C@@H](CCCNC(=N)N)C(=O)N[C@@H](CCCCN)C(=O)N1)C(=O)NCC(=O)N[C@@H](CCCCN)C(=O)O
IC50 (Nav1.7): 0.1 µM | IC50 (Nav1.2): > 2.95 µM

CC[C@H](C)[C@H](NC(=O)[C@H](CCC(N)=O)NC(=O)[C@H](Cc1ccc(O)cc1)NC(=O)[C@H](CCCCN)NC(=O)[C@@H]1CSSC[C@@H]2NC(=O)[C@H](CCC(N)=O)NC(=O)[C@H](CC(=O)O)NC(=O)CNC(=O)[C@H](CO)NC(=O)[C@@H]3CCCN3C(=O)[C@H](CC(N)=O)NC(=O)[C@@H]3CSSC[C@H](NC(=O)[C@H](C(C)C)NC(=O)[C@H](CC(C)C)NC(=O)[C@H](CCCCN)NC(=O)[C@H](CO)NC(=O)[C@H](CO)NC(=O)[C@H](CCCCN)NC(=O)[C@H](CSSC[C@H](NC(=O)[C@H](CCC(=O)O)NC(=O)[C@@H]4CCCN4C(=O)CN)C(=O)N[C@@H](CC(C)C)C(=O)N[C@@H](CCC(=O)O)C(=O)N[C@@H]([C@@H](C)CC)C(=O)N[C@@H](Cc4ccccc4)C(=O)N[C@@H](CCCCN)C(=O)N[C@@H](C)C(=O)N3)NC2=O)C(=O)N[C@@H](CO)C(=O)N[C@@H](CCCNC(=N)N)C(=O)N[C@@H](CCCCN)C(=O)N[C@@H]([C@@H](C)O)C(=O)N[C@@H](CCCNC(=N)N)C(=O)N[C@@H](Cc2c[nH]c3ccccc23)C(=O)N1)C(=O)NCC(=O)N[C@@H](CCCCN)C(=O)O
IC50 (Nav1.7): 0.19 µM | IC50 (Nav1.2): 3.74 µM

CC[C@H](C)[C@H](NC(=O)[C@H](CCC(N)=O)NC(=O)[C@H](Cc1ccc(O)cc1)NC(=O)[C@H](CCCCN)NC(=O)[C@@H]1CSSC[C@@H]2NC(=O)[C@H](CCC(N)=O)NC(=O)[C@H](CC(=O)O)NC(=O)[C@H](CC(N)=O)NC(=O)[C@H](CO)NC(=O)[C@@H]3CCCN3C(=O)[C@H](CC(N)=O)NC(=O)[C@@H]3CSSC[C@H](NC(=O)[C@H](C(C)C)NC(=O)[C@H](CC(C)C)NC(=O)[C@H](CCCCN)NC(=O)[C@H](CO)NC(=O)[C@H](CCC(N)=O)NC(=O)[C@H](CCCCN)NC(=O)[C@H](CSSC[C@H](NC(=O)[C@H](CCC(=O)O)NC(=O)[C@@H]4CCCN4C(=O)CN)C(=O)N[C@@H](CC(C)C)C(=O)N[C@@H](CCC(=O)O)C(=O)N[C@@H]([C@@H](C)CC)C(=O)N[C@@H](Cc4ccccc4)C(=O)N[C@@H](CCCCN)C(=O)N[C@@H](C)C(=O)N3)NC2=O)C(=O)N[C@@H](CO)C(=O)N[C@@H](CCCNC(=N)N)C(=O)N[C@@H](CCCCN)C(=O)N[C@@H]([C@@H](C)O)C(=O)N[C@@H](CCCNC(=N)N)C(=O)N[C@@H](Cc2c[nH]c3ccccc23)C(=O)N1)C(=O)NCC(=O)N[C@@H](CCCCN)C(=O)O
IC50 (Nav1.7): 0.02 µM | IC50 (Nav1.2): 0.46 µM

Reference: patent US10414808B2 (priority 2012, dated 2019)
